The values that follow are results of earlier work, collected in patent publication US12390454B2, “Use and composition for protection against organophosphorus poisoning” (dated 2025).

Sequences of proteins named here, by UniProt entry; tags and fusion partners are left off. A change or cut given only in a name is not applied to a line headed by its entry.
UniProt P22303: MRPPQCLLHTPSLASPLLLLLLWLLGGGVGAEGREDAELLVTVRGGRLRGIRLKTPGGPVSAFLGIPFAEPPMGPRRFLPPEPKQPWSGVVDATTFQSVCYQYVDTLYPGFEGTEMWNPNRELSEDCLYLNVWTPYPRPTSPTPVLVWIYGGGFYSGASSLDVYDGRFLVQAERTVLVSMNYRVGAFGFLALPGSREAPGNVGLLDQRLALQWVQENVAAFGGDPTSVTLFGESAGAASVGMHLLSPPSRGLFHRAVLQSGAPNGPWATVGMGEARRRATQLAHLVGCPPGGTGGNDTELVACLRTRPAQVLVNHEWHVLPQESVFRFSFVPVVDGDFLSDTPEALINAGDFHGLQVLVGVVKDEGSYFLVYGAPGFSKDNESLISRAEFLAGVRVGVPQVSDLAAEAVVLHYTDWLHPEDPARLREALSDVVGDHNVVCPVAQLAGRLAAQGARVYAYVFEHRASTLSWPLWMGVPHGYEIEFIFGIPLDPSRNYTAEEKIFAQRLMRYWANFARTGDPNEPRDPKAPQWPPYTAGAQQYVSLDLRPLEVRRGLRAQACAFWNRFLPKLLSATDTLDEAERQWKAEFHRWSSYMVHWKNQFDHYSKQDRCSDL

The target of the data set is AChE (Homo sapiens, UniProt P22303). Conditions: primates, cited from earlier work.

Where two headings read alike, the source gives them in different places.

Turning to `CN(C)C(=O)Oc1ccc[n+](C)c1`, the “AChE activity in red blood cells inhibited” value is, setting by setting: (high dose 39.5 μg/kg) 50%; (low dose 12.5 μg/kg) 18%.
